Assay: xn = mol fraction of the nth substance listed
Conditions: 101.3 kPa

CCCC[N+]1(C)CCCC1.O=S(=O)(F)[N-]S(=O)(=O)F + CCC[N+]1(C)CCCCC1.O=S(=O)(F)[N-]S(=O)(=O)F
x2 = 0
Conditions	mass density [kg/m3]
293.15 K	1323
308.15 K	1312
323.15 K	1300

CCCC[n+]1ccccc1.F[B-](F)(F)F + CCCC[n+]1ccccc1.O=S(=O)(F)[N-]S(=O)(=O)F
x2 = 0
Conditions	mass density [kg/m3]	viscosity [mPa·s]
283.15 K	1223	460
288.15 K	–	315
313.15 K	–	72
318.15 K	–	57
328.15 K	–	38
333.15 K	–	31.5
343.15 K	–	22.6
348.15 K	1179	19.4
353.15 K	–	16.8

CCC[N+]1(C)CCCCC1.O=S(=O)(F)[N-]S(=O)(=O)F + CCC[N+]1(C)CCCCC1.O=S(=O)([N-]S(=O)(=O)C(F)(F)F)C(F)(F)F
Conditions	mass density, x2 = 0 [kg/m3]	mass density, x2 = 0.2 [kg/m3]	mass density, x2 = 0.4 [kg/m3]	mass density, x2 = 0.6 [kg/m3]	mass density, x2 = 0.8 [kg/m3]	viscosity, x2 = 0.2 [mPa·s]	viscosity, x2 = 0.4 [mPa·s]	viscosity, x2 = 0.6 [mPa·s]	viscosity, x2 = 0.8 [mPa·s]
283.15 K	–	1341	1363	1384	1403	108	140	168	242
288.15 K	–	1337	1359	–	1399	87	109	–	178
293.15 K	–	1333	1355	–	1395	70	86	–	134
298.15 K	–	1330	1351	1371	–	58	70	80	–
303.15 K	–	1326	1347	1367	1386	48.1	57	65	82
308.15 K	–	–	–	1363	1382	–	–	53	65
313.15 K	1294	1318	1339	–	1378	34.5	39.7	–	53
318.15 K	–	1314	1335	1355	1374	29.7	33.6	36.9	43.8
323.15 K	–	1310	1331	1351	1370	25.7	28.8	31.3	36.6
328.15 K	–	1306	1327	1347	1365	22.5	24.9	26.9	30.9
333.15 K	1279	1302	1323	1342	1361	19.9	21.7	23.2	26.4
338.15 K	–	1298	1319	1338	1357	17.6	19.1	20.3	22.8
343.15 K	–	–	1315	1334	1353	–	16.9	17.8	19.9
348.15 K	1268	1290	1311	1330	1348	14.1	15	15.8	17.4
353.15 K	–	1286	1307	1326	1344	12.7	13.5	14.1	15.4

CCCC[n+]1ccccc1.O=S(=O)(F)[N-]S(=O)(=O)F + CCCC[n+]1ccccc1.F[B-](F)(F)F
Conditions	mass density, x1 = 0.2 [kg/m3]	mass density, x1 = 0.4 [kg/m3]	mass density, x1 = 0.6 [kg/m3]	mass density, x1 = 0.8 [kg/m3]	mass density, x1 = 1 [kg/m3]	viscosity, x1 = 0.2 [mPa·s]	viscosity, x1 = 0.4 [mPa·s]	viscosity, x1 = 0.6 [mPa·s]	viscosity, x1 = 0.8 [mPa·s]	viscosity, x1 = 1 [mPa·s]
283.15 K	–	–	1325	1354	1382	–	–	128	94	76
288.15 K	1257	1290	1321	1350	1378	198	135	98	74	60
293.15 K	–	1286	1317	1346	1374	–	103	77	59	48.8
298.15 K	1250	1282	–	–	–	111	80	–	–	–
303.15 K	1246	1279	–	1338	–	86	64	–	39.4	–
308.15 K	–	1275	1305	1334	1361	–	51	40.7	32.9	28.1
313.15 K	–	1271	1302	1330	1357	–	42.1	33.9	27.8	24
318.15 K	–	–	1298	1326	1353	–	–	28.6	23.7	20.7
323.15 K	1232	1264	1294	1322	1349	36.4	29.4	24.4	20.5	18
328.15 K	1228	1260	1290	1318	1344	30.5	25	21	17.8	15.8
333.15 K	1225	1256	1286	1314	1340	25.8	21.5	18.2	15.6	13.9
338.15 K	–	1253	–	1310	1336	–	18.6	–	13.8	12.4
343.15 K	–	1249	1278	–	1332	–	16.3	14.1	–	11.1
348.15 K	–	1245	1274	1302	1328	–	14.3	12.5	11	10
353.15 K	1210	1242	1271	1298	1324	14.5	12.7	11.2	10	9.1

CCC[N+]1(C)CCCCC1.O=S(=O)(F)[N-]S(=O)(=O)F + CCCC[N+]1(C)CCCC1.O=S(=O)(F)[N-]S(=O)(=O)F
Conditions	mass density, x1 = 0.2 [kg/m3]	mass density, x1 = 0.4 [kg/m3]	mass density, x1 = 0.6 [kg/m3]	mass density, x1 = 0.8 [kg/m3]	mass density, x1 = 1 [kg/m3]	viscosity, x1 = 0.2 [mPa·s]	viscosity, x1 = 0.4 [mPa·s]	viscosity, x1 = 0.6 [mPa·s]	viscosity, x1 = 0.8 [mPa·s]	viscosity, x1 = 1 [mPa·s]
283.15 K	1328	1324	1322	1320	1317	148	112	104	99	91
288.15 K	1324	1320	–	1316	1314	117	89	–	80	–
293.15 K	–	1316	–	1312	1310	–	72	–	66	61
298.15 K	1317	1312	–	–	1306	76	60	–	–	51
303.15 K	–	–	1306	1304	1302	–	–	47.3	46.1	43.3
308.15 K	1309	1305	1302	1301	1298	52	41.9	40	39.2	36.9
313.15 K	1305	1301	1299	1297	–	43.9	35.8	34.3	33.6	–
318.15 K	1302	1297	–	1293	1290	37.4	30.8	–	29.1	27.6
323.15 K	1298	1293	1291	1289	1287	32.2	26.7	25.8	25.4	24.2
328.15 K	1294	–	1287	1285	1283	27.9	–	22.6	22.4	21.3
333.15 K	1290	1286	1283	–	–	24.4	20.6	20	–	–
338.15 K	1286	1282	1280	1278	1275	21.5	18.3	17.7	17.6	16.9
343.15 K	–	1278	1276	1274	1271	–	16.3	15.9	15.8	15.1
348.15 K	1279	1274	1272	1270	–	17	14.6	14.3	14.2	–
353.15 K	1275	1270	1268	1266	1264	15.2	13.2	12.9	12.8	12.4
